This note sets out measurements from ChEMBL document CHEMBL4303087, “Broad anti-coronaviral activity of FDA approved drugs against SARS-CoV-2 in vitro and SARS-CoV in vivo” (2020).

This data set concerns Vero C1008. As to conditions: chlorocebus sabaeus, vero c1008, 72 h.

For `COc1ccc(C[C@H]2NC[C@H](O)[C@H]2OC(C)=O)cc1` [ANISOMYCIN], the CC50 was less than 390 nM.
